# Values of other authors, collected in paper PMC4000213 (PLoS ONE, 2014).
# Tested on: BoNT/A / LcA
# Settings: cited from earlier work
substance,measurement,value
zinc chloride [ZnCl2],effect of ZnCl2 on solubilized LcA activity,inhibited by increasing concentrations
